For one molecule, Kd results are on record in publication PMC10368727, “Sequestration of histidine kinases by non-cognate response regulators establishes a threshold level of stimulation for bacterial two-component signaling” (Nature Communications, 2023).

This test addresses T1, phosphorylated, GFP-tagged HK PhoR (cytosolic catalytic domain) (M. tuberculosis, UniProt P71815).
T1 construct: also called PhoR-GFP; PhoR~P
T1 sequence: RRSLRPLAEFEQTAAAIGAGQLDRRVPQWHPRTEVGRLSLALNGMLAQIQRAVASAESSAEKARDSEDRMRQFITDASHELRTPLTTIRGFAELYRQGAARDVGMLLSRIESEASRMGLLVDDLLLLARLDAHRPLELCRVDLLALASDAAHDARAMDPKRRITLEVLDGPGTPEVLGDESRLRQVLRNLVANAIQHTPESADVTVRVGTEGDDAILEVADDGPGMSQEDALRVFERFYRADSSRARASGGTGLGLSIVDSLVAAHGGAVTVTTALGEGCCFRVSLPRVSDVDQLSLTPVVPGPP
To be noted: both partners purified.

B1: response regulator DevR (natural protein)
chain: not shown
One may read the Kd as a measure of binding affinity in units of concentration. With B1, the Kd is 0.154 µM.
